Anti-infective test results gathered from many reports (values: NIAID ChemDB through PubChem).

All rows: growth or infection tests; species: Candida albicans

MIC50, MIC90 and the like: level of inhibition, or share of isolates inhibited.

compound	measure	strain or isolate	method	result
Fc1ccc(CN(Cc2ccc(-c3ccccc3)cc2)n2ccnc2)cc1	MIC	-	-	33 µM
C[C@@H](c1ncncc1F)[C@](O)(Cn1cncn1)c1ccc(F)cc1F	MIC	ATCC 36082	-	1 µg/mL
COc1cnc2c3c(nccc13)C(=O)c1ccccc1-2	MIC	NIH B311	-	3.12 µg/mL
CCC1C=C(c2ccc(Cl)cc2)C(=O)O1	MIC	ATCC 44859	-	125 µM
COc1ccc(/C=C2\SC(c3ccc(F)cc3)N(NC(=O)c3ccc(-n4c(-c5ccc(C)cc5)nc5ccccc5c4=O)cc3)C2=O)c(O)c1	MIC100	MTCC 227	-	1000 µg/mL
Cc1nn2c(-c3ccncc3)nnc2sc1=NNc1ccc(Br)cc1	MIC	ATCC 10231	broth dilution	>100 µg/mL
Cc1c(C(=O)O)c(-c2ccc(Br)cc2)cn1-c1ccc(F)cc1	Mean MIC	40 strains	-	78.57 µg/mL
COc1cncc(-c2nc[n+](C)[nH]2)n1	MIC	-	broth dilution	>256 µg/mL
Cc1c(C(=O)O)c(-c2ccc(F)cc2)cn1-c1ccc(Br)cc1	Mean MIC	40 strains	-	16.77 µg/mL
CC(C)CC(O)C(=O)O	EC50	D 17	broth dilution	18000 µg/mL
O=[N+]([O-])c1c(Cl)cccc1-c1c[nH]cc1Cl	Mean MIC	40 strains	-	47.92 µg/mL
CCCCCCCCCC(=O)C(C)C(=O)N[C@@H](CC(C)C)C(=O)N[C@H](C)C(=O)N1CCC[C@H]1C(=O)N[C@H](C(=O)N[C@@H](CC)C(=O)NCCO)C(C)C	EC50	Day185	broth dilution	5.3 µM
Cc1ccc(-c2nc3ccccc3c(=O)n2-c2ccc(C(=O)NN3C(=O)/C(=C/c4cccc([N+](=O)[O-])c4)SC3c3ccc(F)cc3)cc2)cc1	MIC100	MTCC 227	-	250 µg/mL
CC1C=C(c2ccc([N+](=O)[O-])cc2)C(=O)O1	MIC	ATCC 44859	-	>125 µM
CC(=C/C=C/C(=O)O)/C=C/C=C(\C)C(O)C(C)C(=O)O[C@H]1C[C@H](C)C=C2C=C[C@@]3(C)O[C@@H](O)CC(=O)[C@]3(C)[C@H]21	MIC	579A	-	3.12 µg/mL
N#CC1C(c2cc3ccccc3nc2Cl)C2=C(CCCC2=O)N(c2cccnc2)C1N	MIC99	MTCC 227	broth dilution	500 µg/mL
COc1ccc(N2C(=O)C(Cl)(Cl)C2c2ccccc2)cc1	MIC	ATCC 10231	-	125 µg/mL
Cc1ccc(N/N=c2/sc3nnc(-c4ccncc4)n3nc2C)cc1	MIC	ATCC 10231	broth dilution	>100 µg/mL
C[C@H]1[C@H](O)[C@@H](C)/C=C/C=C/C=C/C=C/C=C/C=C/C=C/[C@H](O[C@@H]2O[C@H](C)[C@@H](O)[C@H](N)[C@@H]2O)C[C@@H]2O[C@](O)(C[C@@H](O)C[C@@H](O)CC[C@H](O)[C@@H](O)C[C@@H](O)CC(=O)O[C@H]1C)C[C@H](O)[C@H]2C(=O)O	MIC	MYA-2732	broth dilution	0.06 µg/mL
CCOC(=O)C1C(c2cc3cc(OC)ccc3nc2Cl)C2=C(CCCC2=O)N(c2cccnc2)C1N	MIC99	MTCC 227	broth dilution	>1000 µg/mL
CCCCCCCCCC(=O)[C@H](C)C(=O)N[C@@H](CC(C)C)C(=O)N[C@H](C)C(=O)N1CCC[C@H]1C(=O)N[C@H](C(=O)N[C@H]1CSCCNC1=O)C(C)C	EC50	Day185	broth dilution	>200 µM
C=CCc1ccc(O)c(OC)c1	MIC90	3068	turbidity	495 µg/mL
CCCCCCCCCCCCCCCCCCCCCCC(=O)Nc1ccccc1C(=O)OCC	MIC	-	-	80 µg/mL
COc1cc(/C=C2\SC(c3ccc(F)cc3)N(NC(=O)c3ccc(-n4c(-c5ccc(C)cc5)nc5ccccc5c4=O)cc3)C2=O)cc(OC)c1OC	MIC100	MTCC 227	-	1000 µg/mL
O=C1C=C(C=Cc2ccc(Cl)cc2)c2ccc(OCCCn3ccnc3)cc2C1	MIC	ATCC 24433	-	25 µg/mL
Cc1ccc2nc(Cl)c(C3C4=C(CCCC4=O)N(c4cccnc4)C(N)C3C#N)cc2c1	MIC99	MTCC 227	broth dilution	1000 µg/mL
Cc1c(C(=O)O)c(-c2ccc(Cl)cc2)cn1-c1ccc(Br)cc1	EC50	40 strains	-	>24.85 µg/mL
NN=C(N)c1cnccn1	MIC	-	broth dilution	256 µg/mL
Cc1onc(-c2cccc(Br)c2)c1C=O	MIC	-	-	50 µg/mL
O=C1C=C(C=Cc2ccc(O)cc2)c2ccc(OCCCn3ccnc3)cc2C1	MIC	ATCC 24433	-	125 µg/mL
O=C1N(c2ccccc2)C(c2ccc([N+](=O)[O-])cc2)C1(Cl)Cl	MIC	ATCC 10231	-	125 µg/mL
Cc1ccc(-c2nc3ccccc3c(=O)n2-c2ccc(C(=O)NN3C(=O)/C(=C/c4ccccc4)SC3c3ccc(F)cc3)cc2)cc1	MIC100	MTCC 227	-	1000 µg/mL
CN(N=C(N)c1cnccn1)S(=O)(=O)c1ccccc1	MIC	-	broth dilution	>256 µg/mL
O=Cc1cc(-c2ccc(Cl)cc2)no1	MIC	-	-	25 µg/mL
CCC1C=C(c2cccc(Cl)c2)C(=O)O1	MIC	ATCC 44859	-	>125 µM
COc1cc(O)c2c(c1)C(=O)c1cc(C)cc(O)c1C2=O	MIC	-	-	50 µg/mL
CC(C)=CCc1c(O)c(C)c(O)c2c1O[C@H](c1ccc(O)cc1)CC2=O	MIC	-	-	>100 µg/mL
O=C1N(c2ccc(Cl)cc2)C(c2ccccc2)C1(Cl)Cl	MIC	ATCC 10231	-	125 µg/mL
Cc1nn2c(-c3ccncc3)nnc2s/c1=N/Nc1ccc(F)cc1	MIC	ATCC 10231	broth dilution	>100 µg/mL
N#CC1C(c2cc3cc(Cl)ccc3nc2Cl)C2=C(CCCC2=O)N(c2cccnc2)C1N	MIC99	MTCC 227	broth dilution	250 µg/mL
COc1ccc(N/N=c2/sc3nnc(-c4ccncc4)n3nc2C)cc1	MIC	ATCC 10231	broth dilution	25 µg/mL
Cc1ccc(-n2cc(-c3ccc(F)cc3)c(C(=O)O)c2C)cc1	EC50	40 strains	-	>11.91 µg/mL
Cc1ccc(CN(Cc2ccc(-c3ccccc3)cc2)n2ccnc2)cc1	MIC	-	-	33 µM
O=C(O[C@@H]1COC(=O)c2cc(O)c(O)c(O)c2-c2c(cc(O)c(O)c2O)C(=O)OC1C1OC(=O)c2cc(O)c(O)c(O)c2-c2c(O)c(O)c(O)c3c2C(=O)OC1[C@H]3O)c1cc(O)c(O)c(O)c1	MIC100	ATCC 64548	broth dilution	580 µg/mL
O=C1C=C(C=Cc2ccc(F)cc2)c2ccc(OCCCn3ccnc3)cc2C1	MIC	ATCC 24433	-	12.5 µg/mL
Cc1ccc(-c2nc3ccccc3c(=O)n2-c2ccc(C(=O)NN3C(=O)/C(=C/c4cccc(O)c4)SC3c3ccc(F)cc3)cc2)cc1	MIC100	MTCC 227	-	1000 µg/mL
O=Cc1cc(-c2ccc(F)cc2)on1	EC50	-	-	28.81 µg/mL
Cc1ccc(N2C(=O)C(Cl)(Cl)C2c2ccccc2)cc1	MIC	ATCC 10231	-	125 µg/mL
Cc1cc(O)c2c(c1)C(=O)c1cccc(O)c1C2=O	MIC	-	-	50 µg/mL
Cc1ccc(-c2nc3ccccc3c(=O)n2-c2ccc(C(=O)NN3C(=O)/C(=C/c4ccc(F)cc4)SC3c3ccc(F)cc3)cc2)cc1	MIC100	MTCC 227	-	500 µg/mL
Cc1ccccc1CN(Cc1ccc(-c2ccccc2)cc1)n1ccnc1	MIC	-	-	200 µM
O=Cc1cc(-c2cccc(Br)c2)no1	EC50	-	-	48.9 µg/mL
COc1ccc(N2C(=O)C(Cl)(Cl)C2c2ccc([N+](=O)[O-])cc2)cc1	MIC	ATCC 10231	-	125 µg/mL
O=Cc1cc(-c2cccc(Cl)c2)no1	EC50	-	-	28.31 µg/mL
Cc1ccc(-c2nc3ccccc3c(=O)n2-c2ccc(C(=O)NN3C(=O)/C(=C/c4cccc(Br)c4)SC3c3ccc(F)cc3)cc2)cc1	MIC100	MTCC 227	-	1000 µg/mL
COc1ccc(CN(Cc2ccc(-c3ccccc3)cc2)n2ccnc2)cc1	MFC	-	-	200 µM
COc1ccccc1/C=C1\SC(c2ccc(F)cc2)N(NC(=O)c2ccc(-n3c(-c4ccc(C)cc4)nc4ccccc4c3=O)cc2)C1=O	MIC1000	MTCC 227	-	1000 µg/mL
c1ccc(CN(Cc2ccc(-c3ccccc3)cc2)n2ccnc2)cc1	MFC	-	-	200 µM
CC(C)CC(=O)C(=O)O	MFC100	ATCC 10231	broth dilution	>72000 µg/mL
Cc1ccc(-n2cc(-c3ccc(Cl)cc3)c(C(=O)O)c2C)cc1	Mean MIC	40 strains	-	52.92 µg/mL

A second listing of 6 rows from above:

compound | measure | strain or isolate | method | result
COc1ccccc1/C=C1\SC(c2ccc(F)cc2)N(NC(=O)c2ccc(-n3c(-c4ccc(C)cc4)nc4ccccc4c3=O)cc2)C1=O | MIC1000 | MTCC 227 | - | 1000 µg/mL
CCOC(=O)C1C(c2cc3cc(OC)ccc3nc2Cl)C2=C(CCCC2=O)N(c2cccnc2)C1N | MIC99 | MTCC 227 | broth dilution | >1000 µg/mL
COc1ccc(/C=C2\SC(c3ccc(F)cc3)N(NC(=O)c3ccc(-n4c(-c5ccc(C)cc5)nc5ccccc5c4=O)cc3)C2=O)c(O)c1 | MIC100 | MTCC 227 | - | 1000 µg/mL
Cc1ccc(-c2nc3ccccc3c(=O)n2-c2ccc(C(=O)NN3C(=O)/C(=C/c4ccccc4)SC3c3ccc(F)cc3)cc2)cc1 | MIC100 | MTCC 227 | - | 1000 µg/mL
Cc1nn2c(-c3ccncc3)nnc2sc1=NNc1ccc(Br)cc1 | MIC | ATCC 10231 | broth dilution | >100 µg/mL
C=CCc1ccc(O)c(OC)c1 | MIC90 | 3068 | turbidity | 495 µg/mL

ECn is the concentration giving n% inhibition of infection, replication or growth. Blank or dashed fields: not listed here. Conditions beyond the fields shown may differ between rows.